Compound potency records, mixed from different reports. Data source: NIAID ChemDB in PubChem.

Shared fields: growth or infection tests; agent: Mycobacterium tuberculosis

Percent inhibition refers to the dose given; in toxicity tests it is the harm to the cells. An empty or dashed field is not shown. a–b is a range or a potency band. ECn: concentration that inhibits the pathogen or its effect by n%. Conditions beyond the fields shown may differ between rows. MIC bound: limit read from a one-dose screen. A number after MIC or MFC names an inhibition level or a share of isolates.

SMILES | read by | strain | dose | measure | cell line | changes | setting | result
[N-]=[N+]=NCCCN1C(=O)C2(OCCO2)c2cc(Cl)ccc21 | - | MC2 6230 | - | MIC99 | - | - | - | >325 µM
CCCC(=O)OCC(S)CS | - | H37Rv | - | MIC | - | - | - | 25 µg/mL
[N-]=[N+]=NCCCCN1C(=O)C2(OCCO2)c2ccccc21 | - | MC2 6230 | - | MIC99 | - | - | - | >347 µM
c1ccc2c(c1)NC(c1ccc(C3Nc4ccccc4S3)cc1)S2 | - | H37Rv | - | MIC | - | - | - | >200 µg/mL
O=C(Nc1ccc(C(F)(F)F)cc1)c1cc(Cl)ccc1OP(=O)(c1ccccc1)c1ccccc1 | - | 7357/1998 | - | MIC | - | - | 21 d | 1 µM
O=C(c1cn(O)nn1)c1ccc(Br)cc1Br | - | H37Rv | 12.5 µg/mL | inhibition | - | - | - | 0%
COc1cc([C@H]2OC[C@H]3[C@@H]2CO[C@@H]3c2cc(OC)c3c(c2)OCO3)cc(OC)c1OC | BACTEC | H37Rv | - | MIC | - | - | - | ≥12.5 µg/mL
O=C(Cc1cccs1)N/N=C/c1ccc(Cl)cc1 | resazurin | H37Rv (ATCC 27294) | - | MIC | - | - | - | >100 µg/mL
Cl.Cl.O=C(Nc1ccc(C2=NCCN2)cc1)c1cccc(NC(=S)Nc2ccc(C3=NCCN3)cc2)c1 | BACTEC | H37Rv | - | MIC bound | - | - | - | >12.5 µg/mL
CCOC(=O)C1=C(C)NC(=O)NC1c1cc(OC)c(OC)c(OC)c1 | - | H37Rv | - | EC50 | - | - | - | >10 µg/mL
O=C(Nc1ccc(C(F)(F)F)cc1)c1cc(Br)ccc1OP(=O)(Oc1ccccc1)Oc1ccccc1 | - | My 331/88 | - | MIC | - | - | 14 d | 2 µM
NNC(=O)c1ccncc1 | resazurin | H37Rv (ATCC 27294) | - | MIC | - | - | - | 0.46 µM
COC(=O)c1cc(O)c(O)c(O)c1 | resazurin | ATCC 25177 | - | MIC | - | - | - | 250 µg/mL
CCOC(=O)C1=C(C)NC(C)=C(C(=O)OCC)C1c1ccccc1 | - | H37Rv | - | EC50 | - | - | - | >10 µg/mL
CO[C@H]1/C=C/O[C@@]2(C)Oc3c(C)c(O)c4c(O)c(c(/C=N/N5CCN(C)CC5)c(O)c4c3C2=O)NC(=O)/C(C)=C\C=C\[C@H](C)[C@H](O)[C@@H](C)[C@@H](O)[C@@H](C)[C@H](OC(C)=O)[C@@H]1C | fluorescence | H37Rv | - | MIC | - | Isoniazid-resistant | - | <0.008 µg/mL
COc1ccc2c(NN)cc(C)nc2c1 | - | H37Rv | - | MIC | - | - | inside macrophages | 6.25 µg/mL
C[C@@H]1C(=O)OCC2=CCN3CC[C@@H](OC(=O)[C@@H](C)[C@@]1(C)O)[C@@H]23 | BACTEC | H37Rv | - | MIC | - | - | - | ≥12.8 µg/mL
CN1CCC(CN2c3ccccc3Sc3ccccc32)C1 | - | - | - | MIC | - | - | - | 5–15 µg/mL
COc1ccc(/C=N/Nc2ccnc3ccccc23)c2ccccc12 | - | H37Rv | 12.5 µg/mL | inhibition | VERO | - | - | 100%
COc1cccc2c1NC(c1ccncc1)S2 | - | H37Rv | - | MIC | - | - | - | 1.6 µg/mL
COc1ccc2ccccc2c1/C=N/Nc1ccnc2cc(Cl)ccc12 | - | H37Rv | 12.5 µg/mL | inhibition | VERO | - | - | 99%
CCOC(=O)C1=C(C)NC(=O)NC1c1ccccc1Cl | - | H37Rv | - | EC50 | - | - | - | >10 µg/mL
O=C(Cc1cccs1)N/N=C/c1ccc(Br)cc1 | resazurin | H37Rv (ATCC 27294) | - | MIC | - | - | - | >100 µg/mL
COC(=O)C1CSC(c2c(COP(=O)([O-])[O-])cnc(C)c2[O-])N1.[Na+].[Na+].[Na+] | BACTEC | H37Rv | - | MIC bound | - | - | - | >12.5 µg/mL
CCOC(=O)C1=C(C)NC(=O)NC1c1ccc(OC)cc1 | - | H37Rv | - | EC50 | - | - | - | >10 µg/mL
c1ccc2c(c1)NC(c1ccncc1)S2 | - | H37Rv | - | MIC | - | - | - | 6.25 µg/mL
O=C(Cc1cccs1)N/N=C/c1cc(O)ccc1O | resazurin | H37Rv (ATCC 27294) | - | MIC | - | - | - | >100 µg/mL
NC1CCN(c2c(F)cc3c(=O)c(C(=O)O)cn(C4CC4)c3c2Cl)C1 | - | - | - | MIC90 | - | - | - | 1 µg/mL
CC(N)Cc1c(Cl)cc(N(C)C)cc1Cl | BACTEC | H37Rv | 12.5 µg/mL | inhibition | - | - | - | 8%
O=C(SCC1CS1)C(Cl)(Cl)Cl | - | H37Rv | - | MIC | - | - | - | 25 µg/mL
Cc1ccc(-c2c(N)[n+]([O-])c3ccccc3[n+]2[O-])cc1 | BACTEC | H37Rv | - | MIC | - | - | - | ≥12.5 µg/mL
c1ccc(C2(c3ccccn3)Nc3ccccc3S2)nc1 | - | H37Rv | - | MIC | - | - | - | 12.5 µg/mL
CC1COc2c(N3CCN(C)CC3)c(F)cc3c(=O)c(C(=O)O)cn1c23 | - | 44 isolates (resistant) | - | MIC50 | - | - | - | 1 µg/mL
FC(F)(F)c1ccc2c(c1)NC(c1ccncc1)S2 | - | H37Rv | - | MIC | - | - | - | 1 µg/mL
CO[C@H]1/C=C/O[C@@]2(C)Oc3c(C)c(O)c4c(O)c(c5[nH]cnc5c4c3C2=O)NC(=O)/C(C)=C\C=C\[C@H](C)[C@H](O)[C@@H](C)[C@@H](O)[C@@H](C)[C@H](OC(C)=O)[C@@H]1C | resazurin | H37Rv | - | MIC bound | - | - | - | <6.25 µg/mL
O=C(CN1C(=O)c2ccccc2C1=O)SCC1CS1 | - | H37Rv | - | MIC | - | - | - | >50 µg/mL
NC1[C@H]2CN(c3nc4c(cc3F)c(=O)c(C(=O)O)cn4-c3ccc(F)cc3F)C[C@@H]12 | - | 250 isolates | - | MIC90 | - | - | - | 64 µg/mL
Ic1nc2cncnc2n1Cc1ccccc1 | BACTEC | H37Rv | - | EC50 | - | - | - | >12.5 µg/mL
Cc1ccc(S(=O)(=O)NC(=O)Nc2c(-c3nc4ccccc4s3)[n+]([O-])c3ccccc3[n+]2[O-])cc1 | BACTEC | H37Rv | 12.5 µg/mL | inhibition | - | - | - | 33%
O=C1c2cc(Br)ccc2OP(=O)(c2ccccc2)N1c1ccc(C(F)(F)F)cc1 | - | 234/2005 | - | MIC | - | - | 21 d | 1 µM
CSC(=S)n1nc(-c2cccs2)c(N=Nc2ccccc2)c1C(F)(F)F | BACTEC | H37Rv | - | MIC bound | - | - | - | ≤128 µg/mL
O=C(NN1C(=O)CS(=O)(=O)C1c1ccccc1F)c1ccncc1 | - | 14PI | - | MIC | - | - | - | >5 µg/mL
O=C(O)CCC(=O)SCC1CS1 | - | H37Rv | - | MIC | - | - | - | 25 µg/mL
O=C(Nc1ccc(Cl)cc1)c1cc(Cl)ccc1OP(=O)(Oc1ccccc1)c1ccccc1 | - | My 331/88 | - | MIC | - | - | 14 d | 4 µM
CN1CCN(CCCN2c3ccccc3Sc3ccc(C(F)(F)F)cc32)CC1 | - | - | - | MIC | - | - | - | 4–32 µg/mL
CCCCS(=O)(=O)Nc1ccc(C(=O)NN)c(Cl)c1 | BACTEC | H37Rv | - | MIC bound | - | - | - | >12.5 µg/mL
O=C(Cc1cccs1)N/N=C/c1ccc([N+](=O)[O-])cc1 | resazurin | H37Rv (ATCC 27294) | - | MIC | - | - | - | >100 µg/mL
O=[N+]([O-])c1ccc(C2Nc3ccccc3S2)o1 | - | H37Rv | - | MIC | - | - | - | 6.3 µg/mL
O=C(Cc1ccc(Cl)cc1)SCC1CS1 | - | H37Rv | - | MIC | - | - | - | 25 µg/mL
CN(C)CCCN1c2ccccc2Sc2ccc(Cl)cc21 | - | 5 isolates (polydrug resistance) | - | MIC | - | - | - | 4 µg/mL
O=C1c2cc(Cl)ccc2OP(=O)(c2ccccc2)N1c1ccc(C(F)(F)F)cc1 | - | 9449/2007 | - | MIC | - | - | 14 d | 1 µM
O=C(SCC1CS1)c1ccc(Cl)cc1 | - | H37Rv | - | MIC | - | - | - | 50 µg/mL
C[C@@H]1CN(c2c(F)c(N)c3c(=O)c(C(=O)O)cn(C4CC4)c3c2F)C[C@H](C)N1 | - | - | - | MIC50 | - | - | - | 0.1 µg/mL
CCOC(=O)c1cn(NC(N)=O)nn1 | - | H37Rv | 12.5 µg/mL | inhibition | - | - | - | 0%
CC(C)(CO)NCC(C)(C)[N+](=O)[O-] | BACTEC | H37Rv | - | MIC | - | - | - | ≥12.8 µg/mL
CO/N=C1\CN(c2nc3c(cc2F)c(=O)c(C(=O)O)cn3C2CC2)CC1CN | - | - | - | MIC50 | - | - | - | 4 µg/mL
COc1ccn2nc(C)c(C(=O)NCc3ccc(-c4ccc(OC(F)(F)F)cc4)c(OC)c3)c2c1 | fluorescence | H37Rv | - | MIC | - | - | - | <0.02 µg/mL
Clc1nc(-c2cccs2)c2ncn(Cc3ccccc3)c2n1 | BACTEC | H37Rv | - | EC50 | - | - | - | <12.5 µg/mL
CC1=NN(c2ccc(/C=C/c3ccc(NC(=O)Nc4ccc(/C=C/c5ccc(N6N=C(C)C(N=Nc7ccccc7C(=O)O)C6=O)cc5S(=O)(=O)[O-])c(S(=O)(=O)[O-])c4)cc3S(=O)(=O)[O-])c(S(=O)(=O)[O-])c2)C(=O)C1N=Nc1ccccc1C(=O)O.[Na+].[Na+].[Na+].[Na+] | BACTEC | H37Rv | 12.8 µg/mL | inhibition | - | - | - | 6%
Clc1ccc2c(c1)NC(c1cccnc1)S2 | - | H37Rv | - | MIC | - | - | - | 1.6 µg/mL
COc1ccn2nc(C)c(C(=O)NCc3ccc(-c4ccc(OC(F)(F)F)cc4)nc3)c2c1 | fluorescence | H37Rv | - | MIC | - | - | - | 0.053 µg/mL
NC1[C@H]2CN(c3nc4c(cc3F)c(=O)c(C(=O)O)cn4-c3ccc(F)cc3F)C[C@@H]12 | - | - | - | MIC90 | - | - | - | 64 µg/mL
C/C(=N\Nc1ccc([N+](=O)[O-])cn1)c1ccc(N)cc1 | BACTEC | H37Rv | - | MIC bound | - | - | - | >12.5 µg/mL
O=C(N/N=C/c1ccc(F)cc1)c1ccncc1 | - | H37Rv | - | MIC | - | - | - | >5 µg/mL
CC1(c2ccccn2)Nc2ccccc2S1 | - | H37Rv | - | MIC | - | - | - | 6.3 µg/mL
S=C1NC2=S(N=C(Nc3ccccc3)N2c2ccccc2)S1 | resazurin | H37Rv | - | MIC bound | - | - | - | >6.25 µg/mL
O=C(c1cn(CCBr)nn1)c1cccs1 | - | H37Rv | 12.5 µg/mL | inhibition | - | - | - | 94%
CCCCNC(=S)NNC(=O)c1ccncc1 | - | H37Rv | - | MIC | VERO | - | - | 3.13 µg/mL
CO[C@H]1/C=C/O[C@@]2(C)Oc3c(C)c(O)c4c(O)c(c5c(c4c3C2=O)NC2(CCN(CC(C)C)CC2)N=5)=NC(=O)/C(C)=C\C=C\[C@H](C)[C@H](O)[C@@H](C)[C@@H](O)[C@@H](C)[C@H](OC(C)=O)[C@@H]1C | - | 1620-4 | - | MBC | - | - | - | 0.125 µg/mL
[N-]=[N+]=NCCCCCCN1C(=O)C(=O)c2cc(F)ccc21 | - | MC2 6230 | - | MIC99 | - | - | - | 172 µM
O=C(Cc1cccs1)N/N=C/c1ccco1 | resazurin | H37Rv (ATCC 27294) | - | MIC | - | - | - | >100 µg/mL
O=C(OCC(S)CS)c1ccc(Cl)cc1Cl | - | H37Rv | - | MIC | - | - | - | 25–50 µg/mL
C(=C\c1nc(-c2ccccc2)c2ncn(Cc3ccccc3)c2n1)/c1ccccc1 | BACTEC | H37Rv | - | EC50 | - | - | - | >12.5 µg/mL
O=C(NN1C(=O)CSC1c1ccccc1F)c1ccncc1 | - | 16PI | - | MIC | - | - | - | >5 µg/mL
CC[CH2][Sn]([F])([F])[CH2]CC.Cc1cnc2c(ccc3c(C)c(C)cnc32)c1C | BACTEC | H37Rv | - | MIC bound | - | - | - | ≤12.5 µg/mL
C=Cc1nc(Cl)c2ncn(Cc3ccccc3)c2n1 | BACTEC | H37Rv | - | EC50 | - | - | - | >12.5 µg/mL
[N-]=[N+]=NCCCCCCCCN1C(=O)C(=O)c2cc(F)ccc21 | - | MC2 6230 | - | MIC99 | - | - | - | 164 µM
COc1ccc(/C=N/Nc2cc(C)nc3cc(Cl)cc(Cl)c23)c2ccccc12 | - | H37Rv | 12.5 µg/mL | inhibition | VERO | - | - | 53%
O=C(Nc1ccccc1)c1ccccc1OP(=O)(c1ccccc1)c1ccccc1 | - | My 331/88 | - | MIC | - | - | 7 d | 62.5 µM
CN1CCCCC1CCN1c2ccccc2Sc2ccc(S(C)=O)cc21 | - | - | - | MIC | - | - | - | 6–32 µg/mL
Cc1nc(N)sc1C | BACTEC | H37Rv | - | MIC bound | - | - | - | >6.25 µg/mL
O=C(c1cn[nH]n1)c1ccc(Br)cc1Br | - | H37Rv | - | MIC | - | - | - | >12.5 µg/mL
C(#Cc1nc(-c2ccccc2)nc2c1ncn2Cc1ccccc1)c1ccccc1 | BACTEC | H37Rv | - | EC50 | - | - | - | <12.5 µg/mL
CCNCCNc1ccc(CO)c2sc3ccccc3c(=O)c12 | BACTEC | H37Rv | - | MIC bound | - | - | - | >12.5 µg/mL
[N-]=[N+]=NCCCCN1C(=O)C2(OCCO2)c2cc(F)ccc21 | - | MC2 6230 | - | MIC99 | - | - | - | >327 µM
CCOC(=O)c1cc2c(cn1)[nH]c1ccccc12 | BACTEC | H37Rv | 12.5 µg/mL | inhibition | - | - | - | 20%
C=C(OCC)c1ncnc2c1nc(Cl)n2Cc1ccccc1 | BACTEC | H37Rv | - | EC50 | - | - | - | >12.5 µg/mL
CN(C)CCN(/N=C/c1ccc([N+](=O)[O-])o1)C(N)=O | BACTEC | H37Rv | 12.5 µg/mL | inhibition | - | - | - | 5%
NNc1ccnc2ccc(C3CCCCC3)cc12 | - | H37Rv | - | MIC | VERO | - | - | 6.25 µg/mL